The source of these data is EP0504290B1, “INHIBITORS OF PNEUMOCYSTIS CARINII DIHYDROFOLATE REDUCTASE” (CHIRON CORPORATION, priority 1989, dated 1991).

Chains of the proteins cited; added tags and fusions are not shown.
UniProt P16184, whole entry: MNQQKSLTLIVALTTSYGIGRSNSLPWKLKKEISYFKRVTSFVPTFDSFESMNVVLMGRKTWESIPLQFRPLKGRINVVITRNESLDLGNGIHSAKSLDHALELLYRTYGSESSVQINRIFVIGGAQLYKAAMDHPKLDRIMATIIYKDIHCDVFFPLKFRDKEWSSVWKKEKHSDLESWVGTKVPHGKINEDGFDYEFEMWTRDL
UniProt P00374, whole entry: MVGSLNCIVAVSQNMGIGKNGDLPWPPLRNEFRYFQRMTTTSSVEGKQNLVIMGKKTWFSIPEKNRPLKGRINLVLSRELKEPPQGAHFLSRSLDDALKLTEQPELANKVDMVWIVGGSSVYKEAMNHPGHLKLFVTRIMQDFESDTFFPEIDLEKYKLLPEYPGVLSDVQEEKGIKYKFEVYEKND

Assay [1] addresses Pneumocystis carinii DHFR (Pneumocystis carinii, UniProt P16184). The following applies: tested form: not stated.
Assay [2] concerns the target recombinant human DHFR (Homo sapiens, UniProt P00374). Briefly: Inhibition of recombinant human DHFR activity by substituted phenyl triazines at 25 µM DHF. It is filed as biochemical. The settings on record: read-out: Human DHFR IC50, 2.0 nM DHFR, sensitivity limit 5000, tested form: not stated.

The structures appear in SMILES notation.

For orientation: IC50 means the concentration needed to halve the response being measured. As for `CCCCCc1ccc(OCc2cccc(N3C(N)=NC(N)=NC3(C)C)c2)cc1`, in assay [1] (ratio of human DHFR Ki to P. carinii DHFR Ki), the Selectivity, Ki (human)/Ki(Pc) came to 2.2. The IC50 in assay [1] (read-out: Pneumocystis carinii DHFR IC50, 0.42 nM DHFR, 25μM DHF, sensitivity limit 5000) is 1.2 µM; in assay [2], 1.57 µM.
